Pooled drug test results. Numbers come from NIAID ChemDB, via PubChem.

All rows: tests in culture; agent: HIV-1; read-out: fold resistance

Neighbouring rows are from separate reports. An empty or dashed field is not shown. Fold resistance: result on the changed form divided by that on wild type.

c1ccc2c(c1)sc1nccn12 ; cell line: CEM + CEM-SS ; strain: IIIB(DPS-R(III)) ; method: cytopathic effect / XTT ; changes: RT-Y181C ; value: >200
Fc1cccc(Cl)c1C1OCc2nc3ccccc3n21 ; cell line: CEM ; strain: Nevirapine-resistant (RT V106A) ; method: cytopathic effect / MTT ; changes: RT-V106A ; value: >3.86
O=c1[nH]cnc2c1ncn2[C@H]1CC[C@@H](CO)O1 ; cell line: HELA/CD4 + HELA CD4+ ; strain: HXB2 ; method: plaque count ; changes: RT-M184I ; value: 1.2
CCc1c(C(=O)c2cc(C)cc(C)c2)n(CC2CC=CC2)c(=O)[nH]c1=O ; cell line: CEM + CEM-SS ; strain: NL4-3 ; method: cytopathic effect / XTT ; changes: RT-V106I ; value: 0.3
O=c1[nH]cnc2c1ncn2[C@H]1CC[C@@H](CO)O1 ; cell line: PBMC ; strain: 7324-1 NRTI resistant recombinant ; method: RT activity ; changes: RT-M41L D67N T69N K70R T215F K219E ; value: 1.7
Cc1ccnc2c1NC(=O)c1cccnc1N2C1CC1 ; cell line: MAGI (CCR5) + MAGI ; strain: NL4-3 ; method: β-galactosidase ; changes: RT-M184V ; value: 1.08
Nc1ccn([C@@H]2CS[C@H](CO)O2)c(=O)n1 ; cell line: PBMC ; strain: 7295-1 NRTI resistant recombinant ; method: RT activity ; changes: RT-D67N T69N K70R M184V T215F K219Q ; value: >300
CC(C)OC(=O)OCOP(=O)(CO[C@H](C)Cn1cnc2c(N)ncnc21)OCOC(=O)OC(C)C ; cell line: MT-2 ; strain: N119 (NNRTI-resistant RT Y181C) ; method: p24 ; changes: RT-Y181C ; value: 0.0474
O=c1[nH]cnc2c1ncn2[C@H]1CC[C@@H](CO)O1 ; cell line: CEM ; strain: IIIB-TIBO(0.5)(RT-L100I) ; method: syncytia ; changes: RT-L100I ; value: 1.6
Cc1cn([C@H]2C[C@H](N=[N+]=[N-])[C@@H](CO)O2)c(=O)[nH]c1=O ; cell line: HeLa ; strain: Recombinant ; method: luciferase ; changes: RT-M41L S68N G112S M184V ; value: 0.1
Cc1ccc(-n2c(C)nnc2SCC(=O)Nc2ccc(C)cc2Br)cc1 ; cell line: HeLa + HeLa-JC53 ; strain: NL4-3 ; method: luciferase ; changes: RT-K103N Y181C ; value: 250
O=c1[nH]cnc2c1ncn2[C@H]1CC[C@@H](CO)O1 ; cell line: PBMC ; strain: HXB2D (RT-L74V) ; method: p24 / ELISA ; changes: RT-L74V ; value: 4.03
CC(C)CN(C[C@@H](O)[C@H](Cc1ccccc1)NC(=O)O[C@H]1CCO[C@H]2OCC[C@H]21)S(=O)(=O)c1ccc2nc(NC3CC3)sc2c1 ; cell line: MT-4 ; strain: NL4-3 ; method: p24 / luminescence ; changes: L23I E34Q K43I M46I I50L G51A L63P A71V V82A T91A ; value: 0.3
Nc1ccn([C@@H]2CO[C@H](CO)S2)c(=O)n1 ; cell line: MT-2 ; strain: HXB2D (RT-K65R) ; method: RT activity ; changes: RT-K65R ; value: 18.33
CC1=C(C(=O)Nc2ccc(Cl)c(C(=O)OC(C)C)c2)SCCO1 ; cell line: CEM + CEM-SS ; strain: IIIB(THZ-R(I)) ; method: cytopathic effect / XTT ; changes: RT-V108I ; value: 15
Cc1cn([C@H]2C[C@H](F)[C@@H](CO)O2)c(=O)[nH]c1=O ; cell line: PBMC ; strain: K AZT-resistant (RT V75I F77L F116Y Q151M) ; method: antigen ; changes: RT-V75I F77L F116Y Q151M ; value: 0.6
CCc1c(C)[nH]c(=O)c(N(C)C)c1C(=O)c1cc(Cl)cc(Cl)c1 ; cell line: MT-4 ; method: cytopathic effect / MTT ; changes: RT-V179E ; value: 7
Cc1cn([C@H]2C=C[C@@H](CO)O2)c(=O)[nH]c1=O ; cell line: HeLa ; strain: Recombinant ; method: luciferase ; changes: RT-M41L A62V S68N G112S M184V ; value: 0.4
Cc1cn([C@H]2C=C[C@@H](CO)O2)c(=O)[nH]c1=O ; cell line: MAGI (CCR5) + MAGI ; strain: HXB2 ; method: β-galactosidase ; changes: RT-A62V V75I F77L F116Y Q151M ; value: 8.4
Cc1cn([C@H]2C=C[C@@H](CO)O2)c(=O)[nH]c1=O ; cell line: PBMC ; strain: 4755-5 NRTI resistant recombinant ; method: RT activity ; changes: RT-M41L E44D D67N T69D Y118I M184V L210W T215Y ; value: 3.9
Nc1ccn([C@H]2CC[C@@H](CO)O2)c(=O)n1 ; cell line: MT-4 ; strain: HXB2-D184+294 (RT M184V P294S) ; method: RT activity ; changes: RT-M184V P294S ; value: 5.91
Nc1nc(=O)n([C@H]2CS[C@@H](CO)O2)cc1F ; cell line: HELA/CD4 + HELA CD4+ ; strain: HXB2 ; method: plaque count ; changes: RT-M184I ; value: 0.248
Cc1ccc2ccccc2c1-n1c(C)nnc1SCC(=O)Nc1ccccc1Br ; cell line: HeLa + HeLa-JC53 ; strain: NL4-3 ; method: luciferase ; changes: RT-Y188L ; value: 210
O=c1[nH]cnc2c1ncn2[C@H]1CC[C@@H](CO)O1 ; cell line: HeLa ; strain: Recombinant ; method: luciferase ; changes: RT-M41L A62V S68N G112S M184V ; value: 0.3
COC(=O)N[C@H](C(=O)N[C@@H](Cc1ccccc1)[C@@H](O)CN(Cc1ccc(-c2ccccn2)cc1)NC(=O)[C@@H](NC(=O)OC)C(C)(C)C)C(C)(C)C ; cell line: MT-4 ; strain: NL4-3 ; method: p24 / luminescence ; changes: L10I M46L I54V V82A ; value: 11
Nc1ncnc2c1ncn2CCOCP(=O)(O)O ; cell line: CEM ; strain: IIIB-BHAP)(0.1)(RT-L100I ; method: syncytia ; changes: RT-L100I ; value: 1.14
CCc1c(C)[nH]c(=O)c(N(C)C)c1C(=O)c1cccc(/C(C)=C/C#N)c1 ; cell line: MT-4 ; method: cytopathic effect / MTT ; changes: RT-E138K ; value: 4
O=[N+]([O-])c1ccccc1S(=O)(=O)c1ccccc1 ; cell line: CEM + CEM-SS ; strain: IIIB(DPS-R(III)) ; method: cytopathic effect / XTT ; changes: RT-Y181C ; value: >60
Fc1cccc(F)c1C1OCc2nc3ccccc3n21 ; cell line: CEM ; strain: Nevirapine-resistant (RT V106A) ; method: cytopathic effect / MTT ; changes: RT-V106A ; value: >3.64
COC(=O)c1cc2c(c(OC)c1-c1ccc(N(C)C)cc1)OCO2 ; cell line: C8166 ; strain: NL4-3 ; method: antigen ; changes: Y181C ; value: 45
CCc1c(C)[nH]c(=O)c(N(C)C)c1C(=O)c1cccc(Br)c1 ; cell line: MT-4 ; method: cytopathic effect / MTT ; changes: RT-Y181C ; value: 79
Nc1nc(=O)n([C@H]2CS[C@@H](CO)O2)cc1F ; cell line: MT-2 ; strain: HXB2 ; conditions: pseudotyped ; method: recombinant virus assay / single cycle ; changes: T66K ; value: 1
CCc1c(C)[nH]c(=O)c(N(C)C)c1C(=O)c1cccc(/C(C)=C(\C)C#N)c1 ; cell line: MT-4 ; method: cytopathic effect / MTT ; changes: RT-Y181C ; value: 21
CN[C@H]1CO[C@@H]2OCC[C@H](OC(=O)N[C@@H](Cc3ccccc3)[C@H](O)CN(CC(C)C)S(=O)(=O)c3ccc4nc(NC5CC5)sc4c3)[C@@H]21 ; cell line: MT-4 ; strain: NL4-3 ; method: p24 / luminescence ; changes: L23I E34Q K43I M46I I50L G51A L63P A71V V82A T91A ; value: 0.7
Cc1ccc(-n2c(C)nnc2SCC(=O)Nc2ccc(C#N)cc2Cl)cc1 ; cell line: HeLa + HeLa-JC53 ; strain: NL4-3 ; method: luciferase ; changes: RT-K103N Y181C ; value: 300
Nc1ccn([C@H]2CC[C@@H](CO)O2)c(=O)n1 ; cell line: CEM ; strain: IIIB-Nevirapine(0.1)(RT-Y181C) ; method: syncytia ; changes: RT-Y181C ; value: 0.12
COc1ccc(-n2c(C)nnc2SCC(=O)Nc2ccccc2Br)c2ccccc12 ; cell line: HeLa + HeLa-JC53 ; strain: NL4-3 ; method: luciferase ; changes: RT-Y188L ; value: 657
C1=Nc2ccccc2SN1 ; cell line: CEM + CEM-SS ; strain: IIIB HEPT-resistant (RT P236L) ; method: cytopathic effect / XTT ; changes: RT-P236L ; value: 1.1
Cc1cn([C@H]2C[C@H](N=[N+]=[N-])[C@@H](CO)O2)c(=O)[nH]c1=O ; cell line: HT4 + HT4-6C ; strain: clinical isolate A012D (RT D67N K70R T215F K219Q) ; method: plaque count ; changes: RT-D67N K70R T215F K219Q ; value: 200
CC(C)CN(C[C@@H](O)[C@H](Cc1ccccc1)NC(=O)O[C@H]1CCOC1)S(=O)(=O)c1ccc(N)cc1 ; cell line: MT-4 ; strain: NL4-3 ; method: p24 / luminescence ; changes: L10F M46I I54V V82A ; value: >27
CCc1c(Sc2ccccn2)n(COCc2ccccc2)c(=O)[nH]c1=O ; cell line: CEM + CEM-SS ; strain: IIIB(THZ-R(I)) ; method: cytopathic effect / XTT ; changes: RT-V108I ; value: 47
CCc1c(Sc2ccccn2)n(COCc2ccccc2)c(=O)[nH]c1=O ; cell line: CEM + CEM-SS ; strain: NL4-3 ; method: cytopathic effect / XTT ; changes: RT-V106I ; value: 51.1
CCc1c(C)[nH]c(=O)c(N(C)C)c1C(=O)c1cccc(CC#N)c1 ; cell line: MT-4 ; method: cytopathic effect / MTT ; changes: RT-Y181C ; value: 126

The last 4 rows once more:

| SMILES | cell line | strain | conditions | method | changes | value |
|---|---|---|---|---|---|---|
| CC(C)CN(C[C@@H](O)[C@H](Cc1ccccc1)NC(=O)O[C@H]1CCOC1)S(=O)(=O)c1ccc(N)cc1 | MT-4 | NL4-3 | - | p24 / luminescence | L10F M46I I54V V82A | >27 |
| CCc1c(Sc2ccccn2)n(COCc2ccccc2)c(=O)[nH]c1=O | CEM + CEM-SS | IIIB(THZ-R(I)) | - | cytopathic effect / XTT | RT-V108I | 47 |
| CCc1c(Sc2ccccn2)n(COCc2ccccc2)c(=O)[nH]c1=O | CEM + CEM-SS | NL4-3 | - | cytopathic effect / XTT | RT-V106I | 51.1 |
| CCc1c(C)[nH]c(=O)c(N(C)C)c1C(=O)c1cccc(CC#N)c1 | MT-4 | - | - | cytopathic effect / MTT | RT-Y181C | 126 |